# PubChem BioAssay AID504761, Drosophila RNAi Screening Center, 2011
# Aim: 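Insect host genes that dengue virus relies on to spread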 (primary screen)
# Cells: D.Mel-2 cells from Drosophila
# Reagent: long dsRNA against Drosophila genes
# Challenge: infection with dengue virus type 2; dose and infection time not stated
# Read-out: 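Per well on two replicate plates, imaging gave the percent of cells positive for viral envelope protein, ranked by infection, and a nuclear count of cells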
# Reading the numbers: infection score: higher = more virus-infected cells
# Rule for the call: 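Low infection ranks in the two replicates (chance level up to 0.065) followed by a retest with a 1.5-fold or larger significant decrease, p below 0.05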
# Meaning of the calls: active = confirmed: knock-down lowers infection; inactive = not picked or not confirmed
# The deposit covers about 22,000 reagents; below is an unselected part of those with a known target gene and a result. Over the whole deposit, 116 (0.52%) are marked active. 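Calls depend on retest data that are not deposited; infection was ranked per plate without normalising between plates; the unit of the infection score is not given.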 A plus sign joins genes that one reagent is predicted to hit. Further read-outs or replicates are left out here. Not given: the amount of reagent, the time to read-out.
target gene,DRSC id,"infection score, replicate 1",outcome
Hsp70Bb + Hsp70Ba + Hsp70Bc + 1 more,DRSC21247,1.61,inactive
Hsp70Bb + Hsp70Ba + Hsp70Bc + 1 more,DRSC21248,4.79,inactive
CG33770,DRSC11717,4.01,inactive
CG17672,DRSC09230,2.4,inactive
CG17672,DRSC10278,15.1,inactive
CG42502 + CG10570,DRSC02071,27.1,inactive
TwdlX (TweedleX),DRSC19151,1.28,inactive
TwdlX (TweedleX),DRSC29528,13.5,inactive
dlt (discs lost),DRSC08705,2.78,inactive
dlt (discs lost),DRSC26168,4.89,inactive
Cbp20 (cap binding protein 20),DRSC16601,8.7,inactive
CG33080,DRSC18080,6.63,inactive
CG33080,DRSC18081,7,inactive
CG33080,DRSC18285,1.42,inactive
CG33080,DRSC25974,2.66,inactive
Actn3 (alpha actinin 3),DRSC14106,3.14,inactive
CG15239,DRSC17972,4,inactive
CG15239,DRSC25155,4.92,inactive
Tsp42Er (Tetraspanin 42Er),DRSC06183,2.59,inactive
CG42527 (retired record) + Hr4,DRSC23080,2.28,inactive
CG42527 (retired record) + Hr4,DRSC23251,6.32,inactive
CG42527 (retired record) + Hr4,DRSC27857,12.9,inactive
CG42527 (retired record) + Hr4,DRSC28298,11.4,inactive
RpL14 (Ribosomal protein L14),DRSC11269,4.65,inactive
CG8673,DRSC03105,2.01,inactive
CG3631,DRSC15503,5.25,inactive
CG3631,DRSC29768,5.07,inactive
pelo (pelota),DRSC03588,5.23,inactive
CG11634,DRSC03700,7.43,inactive
CG1213,DRSC12191,5.82,inactive
cry (cryptochrome),DRSC16928,0.18,inactive
Rbcn-3B (Rabconnectin-3B),DRSC18574,2.13,inactive
"SPARC (Secreted protein, acidic, cysteine-rich)",DRSC14123,4.54,inactive
"SPARC (Secreted protein, acidic, cysteine-rich)",DRSC26381,1.35,inactive
CG15336,DRSC18019,1.22,inactive
CG15336,DRSC28008,9.53,inactive
CG4880,DRSC19923,7.06,inactive
stl (stall),DRSC04396,22.8,inactive
CG1143,DRSC08188,11,inactive
CG3038,DRSC18618,2.92,inactive
kek1 (kekkon 1),DRSC03551,25.4,inactive
CG31262,DRSC13216,4.27,inactive
CG15446,DRSC20518,6.65,inactive
Wnt2 (Wnt oncogene analog 2),DRSC05160,7.99,inactive
Wnt2 (Wnt oncogene analog 2),DRSC07574,9.33,inactive
CG30486,DRSC06680,9.18,inactive
CG8726,DRSC07250,22.6,inactive
CG8726,DRSC26566,6.56,inactive
CG18178,DRSC10302,2.59,inactive
step (steppke),DRSC03694,16.6,inactive
step (steppke),DRSC03699,2.69,inactive
bft (retired record),DRSC21354,4.94,inactive
bft (retired record),DRSC29259,16.2,inactive
Ste:CG33238 + Ste:CG33241 + Ste:CG33236 + 11 more,DRSC19004,1.48,inactive
Ste:CG33238 + Ste:CG33241 + Ste:CG33236 + 11 more,DRSC21260,2.62,inactive
CG6178,DRSC15984,2.24,inactive
CG31817,DRSC01537,1.9,inactive
CG31817,DRSC01538,9.42,inactive
CG31817,DRSC22476,2.21,inactive

Laid out differently: entries from further up
target gene	DRSC id	infection score, replicate 1	outcome
Tsp42Er (Tetraspanin 42Er)	DRSC06183	2.59	inactive
CG42527 (retired record) + Hr4	DRSC23080	2.28	inactive
CG42527 (retired record) + Hr4	DRSC23251	6.32	inactive
CG42527 (retired record) + Hr4	DRSC27857	12.9	inactive
